Experimental data taken from US7060277B2 (priority 1996, dated 2006).

Assays:
SEB [1] = experiment: Murine SEB-binding IgG titers after vaccination; details: 3 weeks before challenge
SEB [2] = details: rabbit serum, third bleed; LC peptides coupled to proteosomes, C peptides to KLH; 100 μg IM at 0 and 3 weeks

| Substance | IgG Titer (SEB [1]; Trial 2, vaccine route IN) | IgG Titer (SEB [1]; Trial 3, vaccine route IM) | SEB IgG Titer (SEB [2]) |
| --- | --- | --- | --- |
| lcT N K K K V T A Q E L D | 200 | 200 |  |
| Y V D V F G A N Y Y Y Q C |  |  | 50 |
| lcY N K K K A T V Q E L D | 200 |  | 1,600 |
